Measurements reported in article PMC12391994, “Synthesis of a fac-Tricarbonylrhenium(I) Complex with Pyrithione, Its Physicochemical Characterization, and Assessment of Biological Effects” (ACS Omega, 2025).

Test system: DNA polymerase used in qPCR
Assay: Direct impact of the complex on the DNA polymerase used in qPCR
Type: biochemical

Structure (SMILES): N#Cc1ccccc1.[C-]#[O+].[C-]#[O+].[C-]#[O+].[O-]n1ccccc1=S.[Re+] [complex 4, fac-[Re(CO)3(pth)(benzonitrile)]]
- dCt value (treated vs untreated): 0.34
- Ct value of treated sample (effect on DNA polymerase) (untreated: 16.67 ± 0.58): 17.01 ± 0.48
